Results of unrelated studies side by side (data: NIAID ChemDB).

Common to all: tests in culture; species: Candida albicans

Zones are inhibition diameters on agar.

CC(=O)Oc1cc(O)cc(/C=C/c2ccc(O)cc2)c1 ; method: broth dilution ; strain or isolate: SC5314 ; read-out: MIC95 ; value: >300 µg/mL
COc1cc(C[C@H](C)[C@H](C)Cc2ccc(O)c(O)c2)ccc1O ; method: broth dilution ; strain or isolate: CCC 128-2000 ; read-out: MIC100 ; value: 62.5 µg/mL
CC(=O)Oc1ccc(/C=C/c2cc(OC(C)=O)cc(OC(C)=O)c2)cc1 ; method: broth dilution ; strain or isolate: SC5314 ; read-out: MIC95 ; value: >300 µg/mL
c1ccc2[nH]ccc2c1 ; method: broth dilution ; strain or isolate: ATCC 90028 ; read-out: MIC50 ; value: 500 µg/mL
O=[N+]([O-])c1cc(C[Se]c2nnnn2C2CCCCC2)cc([N+](=O)[O-])c1 ; method: broth dilution ; strain or isolate: ATCC 44859 ; setting: 48 h ; read-out: EC80 ; value: >500 µM
CCN1C[C@]2(COC)CC[C@H](OC)[C@]34C1[C@@](O)([C@@H](OC)[C@H]23)[C@@]1(O)C[C@H](OC)C2C[C@@H]4[C@@H]1[C@H]2OC(C)=O ; read-out: MBC ; value: 0.125 µg/mL
CCC(C)n1ncn(-c2ccc(N3CCN(c4ccc(OC[C@H]5CO[C@](Cn6cncn6)(c6ccc(Cl)cc6Cl)O5)cc4)CC3)cc2)c1=O ; strain or isolate: 85 strains (fluconazole-resistant) ; read-out: MIC90 ; value: >8 µg/mL
O=C(O)c1cc(O)c(O)c(O)c1 ; method: broth dilution ; strain or isolate: ATCC 10231 ; read-out: MLC ; value: 200 µg/mL
OC(Cn1cncn1)(Cn1cncn1)c1ccc(F)cc1F ; method: broth dilution ; strain or isolate: YL 339 ; read-out: MIC ; value: 512 µg/mL
CCOC(=O)Cn1nnc(Cn2cc(C(C)=O)c3ccccc32)n1 ; method: agar ; read-out: MIC99 ; value: 210 µg/mL
CN(C/C=C/C#CC(C)(C)C)Cc1cccc2ccccc12 ; method: broth dilution ; strain or isolate: 9 clinical isolates ; read-out: MIC90 ; value: >16 µg/mL
C=C(C)[C@@H]1CC[C@]2(COC(=O)COc3cc(C(C)C)ccc3C)CC[C@]3(C)C(CCC4[C@@]5(C)CC[C@H](O)C(C)(C)C5CC[C@]43C)C12 ; method: broth dilution ; strain or isolate: ATCC 90028 ; read-out: MIC90 ; value: 31.4 µg/mL
CC(=O)N1CCN(c2ccc(OC[C@H]3CO[C@](Cn4ccnc4)(c4ccc(Cl)cc4Cl)O3)cc2)CC1 ; strain or isolate: Isogenic isolate 2 MDR1 (12X) ; read-out: MIC ; value: 0.004 µg/mL
COC(=O)c1cc(O)c(O)c(O)c1 ; method: broth dilution ; strain or isolate: ATCC 10231 ; read-out: MLC ; value: >200 µg/mL
CCC(C)CC(C)CCCCCCCCC(=O)NC1C[C@@H](O)[C@@H](O)NC(=O)[C@@H]2[C@@H](O)CCN2C(=O)[C@H]([C@@H](O)CC(N)=O)NC(=O)[C@H]([C@H](O)[C@@H](O)c2ccc(OP(=O)([O-])O)cc2)NC(=O)[C@@H]2C[C@@H](O)CN2C(=O)[C@H]([C@H](C)O)NC1=O.[Na+] ; strain or isolate: MY1055 ; read-out: MFC ; value: 2 µg/mL
CC1(C)C=C2C3CCC4[C@@]5(C)CCC(O)C(C)(C)C5CC[C@@]4(C)[C@]3(C)CC[C@@]2(C(=O)O)CC1 ; method: broth dilution ; strain or isolate: ATCC 10231 ; read-out: MLC ; value: >200 µg/mL
O[C@](Cn1cncn1)(Cn1cnc(/C=C/c2ccc(OCC(F)(F)C(F)F)cc2)n1)c1ccc(F)cc1F ; strain or isolate: 25 strains ; read-out: Mean MIC80 ; value: 0.0037 µg/mL
O=[N+]([O-])c1cc(C[Se]c2nnnn2Cc2ccccc2)cc([N+](=O)[O-])c1 ; method: broth dilution ; strain or isolate: ATCC 44859 ; setting: 24 h ; read-out: EC80 ; value: >500 µM
CC(C)[C@@H]1CC[C@@H](C)C[C@H]1O ; method: broth dilution ; strain or isolate: ATCC 90028 ; read-out: MIC99.9 ; value: >8000 µg/mL
C[C@@H](c1ncncc1F)[C@](O)(Cn1cncn1)c1ccc(F)cc1F ; strain or isolate: 4054 strains (fluconazole-susceptible) ; read-out: MIC90 ; value: 0.015 µg/mL
CC(=O)N1CCN(c2ccc(OC[C@H]3CO[C@](Cn4ccnc4)(c4ccc(Cl)cc4Cl)O3)cc2)CC1 ; method: broth dilution ; strain or isolate: 9 clinical isolates ; read-out: MIC90 ; value: 0.25 µg/mL
Cc1c(N2CCC(N3CCCCC3)CC2)c(F)cn2c(=O)c(C(=O)O)cc(C3CC3)c12.O=C(O)C(F)(F)F ; strain or isolate: CCH442 ; read-out: MIC ; value: >100 µg/mL
Clc1ccc(COC(Cn2ccnc2)c2ccc(Cl)cc2Cl)c(Cl)c1 ; method: broth dilution ; strain or isolate: ICB 12 ; read-out: MFC100 ; value: 32 µg/mL
C=C(C)C1CC=C(C)C(=O)C1 ; method: broth dilution ; strain or isolate: ATCC 90028 ; read-out: MIC99.9 ; value: >8000 µg/mL
CC1=[N+](Cc2ccc(C(C)(C)C)cc2)CCc2cc3c(cc21)OCO3.[Br-] ; mutations: Fluconazole-resistant ; method: broth dilution ; strain or isolate: Clinical isolate ; read-out: MIC80 ; value: >64 µg/mL
Fc1ccc(-c2nn(-c3ccccc3)cc2C2=NNC(c3ccc(F)cc3)C2)cc1 ; strain or isolate: MTCC 227 ; read-out: MIC99 ; value: 20 µM
S=C(NCCc1ccc2c(c1)OCO2)Nc1ccccc1 ; mutations: Fluconazole-resistant ; method: broth dilution ; strain or isolate: Clinical isolate ; read-out: MIC80 ; value: >64 µg/mL
Clc1ccccc1C(c1ccccc1)(c1ccccc1)n1ccnc1 ; read-out: MIC95 ; value: 6.25 µg/mL
C[C@H]1[C@H](O)[C@@H](C)/C=C/C=C/C=C/C=C/C=C/C=C/C=C/[C@H](O[C@@H]2O[C@H](C)[C@@H](O)[C@H](N)[C@@H]2O)C[C@@H]2O[C@](O)(C[C@@H](O)C[C@@H](O)CC[C@H](O)[C@@H](O)C[C@@H](O)CC(=O)O[C@H]1C)C[C@H](O)[C@H]2C(=O)O ; method: broth dilution ; strain or isolate: ATCC 90028 ; read-out: MIC90 ; value: 2 µg/mL
CC(C)=CCOc1ccc(C2CC(=O)c3c(O)cc(O)cc3O2)cc1O ; method: agar diffusion / agar ; strain or isolate: ATCC 14053 ; dose: 100 µg/mL ; read-out: zone ; value: 0 mm
Fc1ccc(C2=[N+](Cc3ccc(Br)cc3)CCc3cc4c(cc32)OCO4)c(F)c1.[Br-] ; mutations: Fluconazole-resistant ; method: broth dilution ; strain or isolate: Clinical isolate ; read-out: MIC80 ; value: >64 µg/mL
COc1ccccc1O ; method: broth dilution ; strain or isolate: ATCC 90028 ; read-out: MIC99.9 ; value: 2000 µg/mL
O=C(Cc1ccccc1)NCCc1ccc2c(c1)OCO2 ; mutations: Fluconazole-resistant ; method: broth dilution ; strain or isolate: Clinical isolate ; read-out: MIC80 ; value: >64 µg/mL
CC(=O)c1cn(Cc2nnn(CC(=O)NN)n2)c2ccccc12 ; method: agar ; read-out: MIC99 ; value: 110 µg/mL
Cc1c(N2CC[C@H](n3cccc3)C2)c(F)cn2c(=O)c(C(=O)O)cc(C3CC3)c12 ; strain or isolate: CCH442 ; read-out: MIC ; value: >100 µg/mL
C[C@@H]([C@H]1CC[C@H](C)C(=O)C1)[C@H]1CC[C@]2(C)C3=C(CC[C@@]12C)[C@]1(C)CC[C@H](O)C(C)(C)[C@H]1CC3 ; method: agar diffusion / agar ; strain or isolate: MTCC 183 ; dose: 0.2 µg/disc ; read-out: zone ; value: 0 mm
Cc1c(N2CCOCC2CN)c(F)cn2c(=O)c(C(=O)O)cc(C3CC3)c12.Cl ; strain or isolate: CCH442 ; read-out: MIC ; value: >100 µg/mL
CC(C)CCOc1ccc(C2CC(=O)c3c(O)cc(O)cc3O2)cc1 ; method: agar diffusion / agar ; strain or isolate: ATCC 14053 ; dose: 100 µg/mL ; read-out: zone ; value: 0 mm
C[N+]1=Cc2cc3c(cc2CC1)OCO3.[I-] ; mutations: Fluconazole-resistant ; method: broth dilution ; strain or isolate: Clinical isolate ; read-out: MIC80 ; value: >64 µg/mL
CC1=CC[C@@H]2C[C@H]1C2(C)C ; method: broth dilution ; strain or isolate: ATCC 90028 ; read-out: MIC99.9 ; value: >8000 µg/mL
CCO[C@@H]1C[C@@H]([C@H](C)[C@H]2CC[C@]3(C)C4=C(CC[C@@]23C)[C@]2(C)CC[C@H](O)C(C)(C)[C@H]2CC4)CC[C@@H]1C ; method: agar diffusion / agar ; strain or isolate: MTCC 183 ; dose: 0.5 µg/disc ; read-out: zone ; value: 12 mm
COc1ccc(/C=C/c2cc(OC)cc(OC)c2)cc1 ; method: broth dilution ; strain or isolate: SC5314 ; read-out: MIC95 ; value: >300 µg/mL
Cc1c(N2CCC(CCO)CC2)c(F)cn2c(=O)c(C(=O)O)cc(C3CC3)c12 ; strain or isolate: CCH442 ; read-out: MIC ; value: >100 µg/mL
O=[N+]([O-])c1cc(CSc2cccc[n+]2[O-])cc([N+](=O)[O-])c1 ; method: broth dilution ; strain or isolate: ATCC 44859 ; setting: 24 h ; read-out: EC80 ; value: >500 µM
COc1ccccc1C=O ; method: agar diffusion / agar ; strain or isolate: 10261 ; read-out: MIC90 ; value: 500–700 µg/mL
O=C(Cc1ccccc1NC(=O)C(F)(F)F)NCCc1ccc2c(c1)OCO2 ; mutations: Fluconazole-resistant ; method: broth dilution ; strain or isolate: Clinical isolate ; read-out: MIC80 ; value: >64 µg/mL
C=CCOc1ccc(C2CC(=O)c3c(O)cc(O)cc3O2)cc1 ; method: agar diffusion / agar ; strain or isolate: ATCC 10231 ; dose: 100 µg/mL ; read-out: zone ; value: 0 mm
Cc1c(N)nc([C@H](CC(N)=O)NC[C@H](N)C(N)=O)nc1C(=O)N[C@H](C(=O)N[C@H](C)[C@@H](O)[C@H](C)C(=O)N[C@H](C(=O)NCCc1nc(-c2nc(C(=O)NCCC[S+](C)C)cs2)cs1)[C@@H](C)O)C(O[C@@H]1O[C@@H](CO)[C@@H](O)[C@H](O)[C@@H]1O[C@H]1O[C@H](CO)[C@@H](O)[C@H](OC(N)=O)[C@@H]1O)c1cnc[nH]1 ; strain or isolate: Isolate 94-75 ; read-out: MLC ; value: 50 µg/mL
CC(C)=CCC/C(C)=C/C=O ; method: broth dilution ; strain or isolate: ATCC 90028 ; read-out: MIC99.9 ; value: 1000 µg/mL
O=[N+]([O-])c1cc(CSc2nnnn2-c2ccc(Cl)c(Cl)c2)cc([N+](=O)[O-])c1 ; method: broth dilution ; strain or isolate: ATCC 44859 ; setting: 48 h ; read-out: EC80 ; value: >125 µM
CN(C/C=C/C#CC(C)(C)C)Cc1cccc2ccccc12 ; strain or isolate: 179 isolates ; read-out: Mean MIC ; value: 1.2 µg/mL
O=C(NCCc1ccc2c(c1)OCO2)NC1CCCCC1 ; mutations: Fluconazole-resistant ; method: broth dilution ; strain or isolate: Clinical isolate ; read-out: MIC80 ; value: >64 µg/mL
O=C(O)c1cccc(-n2nnnc2SCc2cc([N+](=O)[O-])cc([N+](=O)[O-])c2)c1 ; method: broth dilution ; strain or isolate: ATCC 44859 ; setting: 24 h ; read-out: EC80 ; value: >500 µM

A second listing of 5 rows from above:

{"smiles": "C=C(C)[C@@H]1CC[C@]2(COC(=O)COc3cc(C(C)C)ccc3C)CC[C@]3(C)C(CCC4[C@@]5(C)CC[C@H](O)C(C)(C)C5CC[C@]43C)C12", "method": "broth dilution", "strain or isolate": "ATCC 90028", "read-out": "MIC90", "value": "31.4 µg/mL"}
{"smiles": "CC(=O)Oc1cc(O)cc(/C=C/c2ccc(O)cc2)c1", "method": "broth dilution", "strain or isolate": "SC5314", "read-out": "MIC95", "value": ">300 µg/mL"}
{"smiles": "Cc1c(N2CCC(N3CCCCC3)CC2)c(F)cn2c(=O)c(C(=O)O)cc(C3CC3)c12.O=C(O)C(F)(F)F", "strain or isolate": "CCH442", "read-out": "MIC", "value": ">100 µg/mL"}
{"smiles": "Cc1c(N2CCOCC2CN)c(F)cn2c(=O)c(C(=O)O)cc(C3CC3)c12.Cl", "strain or isolate": "CCH442", "read-out": "MIC", "value": ">100 µg/mL"}
{"smiles": "C[C@@H](c1ncncc1F)[C@](O)(Cn1cncn1)c1ccc(F)cc1F", "strain or isolate": "4054 strains (fluconazole-susceptible)", "read-out": "MIC90", "value": "0.015 µg/mL"}

Conditions beyond the fields shown may differ between rows. MIC50, MIC90 and the like: level of inhibition, or share of isolates inhibited. ECn: concentration that inhibits the pathogen or its effect by n%. a–b is a range or a potency band.